# In US4816447A, “Anti-viral guanine compounds” (priority 1984, dated 1989):
# System: Recombinant 6-34
# Test: Drug sensitivity of HSV-1/HSV-2 intertypic Recombinant 6-34
# Conditions: e.g. R6-34, R6-19, PAA^R1
row,Structure (SMILES),resistance of altered DNA polymerase mutants
1,"O=C(O)CP(=O)(O)O [PAA, phosphonoacetic acid]",resistance
2,"Nc1nc2c(ncn2COCCO)c(=O)[nH]1 [Acycloguanosine, 9-(2-hydroxyethoxymethyl)guanine, reference compound]",resistance
3,Nc1ncnc2c1ncn2[C@@H]1O[C@H](CO)[C@@H](O)[C@@H]1O [adenine arabinoside],resistance
4,"Nc1nc2c(ncn2COC2COP(=O)(O)OC2)c(=O)[nH]1 (stereo not shown) [Cyclic Monophosphate, Potassium 9-(1,3-dihydroxy-2-propoxymethyl)guanine cyclic monophosphate]",resistance
